Measurements reported in patent US20020049257A1, “Antibacterial composition” (priority 2000, published 2002).

Test: Odor value / olfactive evaluation

COC1CCC(C2CC3CC2C(C)C3(C)C)CC1O (centres unmarked) [2-methoxy-5-(5,5,6-trimethyl-bicyclo[2.2.1]hept-2-yl)cyclohexan-1-ol]
odor (in words): odorless

COC1CC(C2CC3CC2C(C)C3(C)C)CCC1O (centres unmarked) [2-methoxy-4-(5,5,6-trimethylbicyclo[2.2.1]hept-2-yl)cyclohexan-1-ol]
odor (in words): odorless
